{"source": "PubChem BioAssay AID1259414 (Drosophila RNAi Screening Center, 2018)", "aim": "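Fly genes that alter Wolbachia amount inside host cells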 (primary screen)", "system": "Drosophila JW18 cells infected with Wolbachia", "reagent": "long dsRNA against Drosophila genes, 0.25 µg dsRNA per well of a 384-well plate", "duration": "5 days", "challenge": "cells persistently infected with Wolbachia before knock-down; no added drug", "measured": "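Automated imaging of bacterial rRNA staining divided by host cell count, reported as plate-normalised robust z-score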", "scale": "Wolbachia per cell robust z: higher = more Wolbachia per host cell than the plate typical", "call rule": "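Hit when robust z is 1.5 or more, or -1.5 or less, in at least two of three replicates; excludes dsRNAs with several or no targets, genes not expressed in JW18 and well A1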", "note": "The deposit covers about 24,000 reagents; shown is an unselected part of those with a known target gene and a result. Of all reagents, about 1,210 (5%) got an active call. 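Inactive calls also include excluded dsRNAs with several or no targets, genes unexpressed in JW18, and well A1, regardless of score.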"}
{"Target gene": "Tsp42Eo", "dsRNA": "DRSC06184", "Wolbachia per cell robust z, rep 1": 1.2, "Wolbachia per cell robust z, rep 2": 0.081, "Wolbachia per cell robust z, rep 3": -0.357, "activity call": "inactive"}
{"Target gene": "CG8543", "dsRNA": "DRSC10990", "Wolbachia per cell robust z, rep 1": 0.726, "Wolbachia per cell robust z, rep 2": 0.459, "Wolbachia per cell robust z, rep 3": 0.304, "activity call": "inactive"}
{"Target gene": "CG8543", "dsRNA": "DRSC22809", "Wolbachia per cell robust z, rep 1": -1.52, "Wolbachia per cell robust z, rep 2": -1.67, "Wolbachia per cell robust z, rep 3": -0.997, "activity call": "inactive"}
{"Target gene": "CG8543", "dsRNA": "DRSC25399", "Wolbachia per cell robust z, rep 1": 0.365, "Wolbachia per cell robust z, rep 2": 0.519, "Wolbachia per cell robust z, rep 3": -0.825, "activity call": "inactive"}
{"Target gene": "spn-F", "dsRNA": "DRSC14475", "Wolbachia per cell robust z, rep 1": 2.15, "Wolbachia per cell robust z, rep 2": 0.195, "Wolbachia per cell robust z, rep 3": 1.21, "activity call": "inactive"}
{"Target gene": "spn-F", "dsRNA": "DRSC29328", "Wolbachia per cell robust z, rep 1": 0.259, "Wolbachia per cell robust z, rep 2": 0.0909, "Wolbachia per cell robust z, rep 3": -0.141, "activity call": "inactive"}
{"Target gene": "Act57B", "dsRNA": "DRSC04042", "Wolbachia per cell robust z, rep 1": 4.4, "Wolbachia per cell robust z, rep 2": 2.14, "Wolbachia per cell robust z, rep 3": 3.17, "activity call": "inactive"}
{"Target gene": "CG42470", "dsRNA": "DRSC40646", "Wolbachia per cell robust z, rep 1": 1.22, "Wolbachia per cell robust z, rep 2": -0.371, "Wolbachia per cell robust z, rep 3": -0.695, "activity call": "inactive"}
{"Target gene": "Ced-12", "dsRNA": "DRSC02840", "Wolbachia per cell robust z, rep 1": 3.38, "Wolbachia per cell robust z, rep 2": 1.49, "Wolbachia per cell robust z, rep 3": -1.94, "activity call": "inactive"}
{"Target gene": "Ced-12", "dsRNA": "DRSC24035", "Wolbachia per cell robust z, rep 1": 2.01, "Wolbachia per cell robust z, rep 2": 0.939, "Wolbachia per cell robust z, rep 3": 0.462, "activity call": "inactive"}
{"Target gene": "CG14137", "dsRNA": "DRSC10142", "Wolbachia per cell robust z, rep 1": -0.455, "Wolbachia per cell robust z, rep 2": -0.836, "Wolbachia per cell robust z, rep 3": 0.933, "activity call": "inactive"}
{"Target gene": "CG14137", "dsRNA": "DRSC25376", "Wolbachia per cell robust z, rep 1": -0.368, "Wolbachia per cell robust z, rep 2": -2.33, "Wolbachia per cell robust z, rep 3": -0.283, "activity call": "inactive"}
{"Target gene": "btv", "dsRNA": "DRSC01615", "Wolbachia per cell robust z, rep 1": -1.5, "Wolbachia per cell robust z, rep 2": 0.875, "Wolbachia per cell robust z, rep 3": -0.13, "activity call": "inactive"}
{"Target gene": "btv", "dsRNA": "DRSC02449", "Wolbachia per cell robust z, rep 1": -0.931, "Wolbachia per cell robust z, rep 2": -1.4, "Wolbachia per cell robust z, rep 3": -2.02, "activity call": "inactive"}
{"Target gene": "Tmem63", "dsRNA": "DRSC06063", "Wolbachia per cell robust z, rep 1": 1.02, "Wolbachia per cell robust z, rep 2": -0.206, "Wolbachia per cell robust z, rep 3": 1.82, "activity call": "inactive"}
{"Target gene": "Tmem63", "dsRNA": "DRSC27402", "Wolbachia per cell robust z, rep 1": -1.32, "Wolbachia per cell robust z, rep 2": -0.668, "Wolbachia per cell robust z, rep 3": 0.0888, "activity call": "inactive"}
{"Target gene": "unc", "dsRNA": "DRSC20511", "Wolbachia per cell robust z, rep 1": -1.26, "Wolbachia per cell robust z, rep 2": -1.68, "Wolbachia per cell robust z, rep 3": -1.21, "activity call": "inactive"}
{"Target gene": "unc", "dsRNA": "DRSC27962", "Wolbachia per cell robust z, rep 1": 0.657, "Wolbachia per cell robust z, rep 2": 0.244, "Wolbachia per cell robust z, rep 3": -0.387, "activity call": "inactive"}

Next part, starting with the last 4 of the part before.
{"Target gene": "Tmem63", "dsRNA": "DRSC06063", "Wolbachia per cell robust z, rep 1": 1.02, "Wolbachia per cell robust z, rep 2": -0.206, "Wolbachia per cell robust z, rep 3": 1.82, "activity call": "inactive"}
{"Target gene": "Tmem63", "dsRNA": "DRSC27402", "Wolbachia per cell robust z, rep 1": -1.32, "Wolbachia per cell robust z, rep 2": -0.668, "Wolbachia per cell robust z, rep 3": 0.0888, "activity call": "inactive"}
{"Target gene": "unc", "dsRNA": "DRSC20511", "Wolbachia per cell robust z, rep 1": -1.26, "Wolbachia per cell robust z, rep 2": -1.68, "Wolbachia per cell robust z, rep 3": -1.21, "activity call": "inactive"}
{"Target gene": "unc", "dsRNA": "DRSC27962", "Wolbachia per cell robust z, rep 1": 0.657, "Wolbachia per cell robust z, rep 2": 0.244, "Wolbachia per cell robust z, rep 3": -0.387, "activity call": "inactive"}
{"Target gene": "amx", "dsRNA": "DRSC23466", "Wolbachia per cell robust z, rep 1": -2.23, "Wolbachia per cell robust z, rep 2": -0.254, "Wolbachia per cell robust z, rep 3": 0.692, "activity call": "inactive"}
{"Target gene": "Gfrl", "dsRNA": "DRSC15196", "Wolbachia per cell robust z, rep 1": 1.44, "Wolbachia per cell robust z, rep 2": 0.572, "Wolbachia per cell robust z, rep 3": -2.19, "activity call": "inactive"}
{"Target gene": "Gfrl", "dsRNA": "DRSC15197", "Wolbachia per cell robust z, rep 1": 0.671, "Wolbachia per cell robust z, rep 2": 0.741, "Wolbachia per cell robust z, rep 3": -1.41, "activity call": "inactive"}
{"Target gene": "Gfrl", "dsRNA": "DRSC15199", "Wolbachia per cell robust z, rep 1": 0.142, "Wolbachia per cell robust z, rep 2": 0.424, "Wolbachia per cell robust z, rep 3": 0.127, "activity call": "inactive"}
{"Target gene": "Gfrl", "dsRNA": "DRSC15565", "Wolbachia per cell robust z, rep 1": -0.263, "Wolbachia per cell robust z, rep 2": 0.592, "Wolbachia per cell robust z, rep 3": -0.205, "activity call": "inactive"}
{"Target gene": "Gfrl", "dsRNA": "DRSC15719", "Wolbachia per cell robust z, rep 1": 0.188, "Wolbachia per cell robust z, rep 2": 0.461, "Wolbachia per cell robust z, rep 3": 0.501, "activity call": "inactive"}
{"Target gene": "Gfrl", "dsRNA": "DRSC25385", "Wolbachia per cell robust z, rep 1": -0.51, "Wolbachia per cell robust z, rep 2": -0.301, "Wolbachia per cell robust z, rep 3": 0.18, "activity call": "inactive"}
{"Target gene": "Gfrl", "dsRNA": "DRSC26132", "Wolbachia per cell robust z, rep 1": -1.08, "Wolbachia per cell robust z, rep 2": 0.716, "Wolbachia per cell robust z, rep 3": -1.36, "activity call": "inactive"}
{"Target gene": "Gfrl", "dsRNA": "DRSC27810", "Wolbachia per cell robust z, rep 1": -1.36, "Wolbachia per cell robust z, rep 2": -1.13, "Wolbachia per cell robust z, rep 3": -1.17, "activity call": "inactive"}
{"Target gene": "Gfrl", "dsRNA": "DRSC28808", "Wolbachia per cell robust z, rep 1": 0.523, "Wolbachia per cell robust z, rep 2": -0.119, "Wolbachia per cell robust z, rep 3": -0.862, "activity call": "inactive"}
